Construct, isoform or probe ends are uncertain for at least one entry.
Columns and labels:
RpoN2 (sigma54) = RpoN2 (sigma54) (UniProt B0RT01); experiment: EMSA; settings: 0-8 uM protein, no core RNAP, recombinant protein, residues 21-487, protein details: N-terminal His6 (pET-28b), probe letters rebuilt from the primers and the genome
RpoN1 (sigma54) = RpoN1 (sigma54) (UniProt B0RQH3); experiment: EMSA; settings: 0-8 uM protein, no core RNAP; recombinant protein; protein details: N-terminal His6 (pET-28b); probe letters rebuilt from the primers and the genome

“TCGAACTGTTGGTGTTGAGGTTACGCTGAGCGTTCAGCGACATTACGTTGGTGTTGATTACCTGTGCCATTTTGATATCTCCTCTAAGCGATTTTTCCGGCAAGGGGGCTTGCCTGGAGCCTCCGCAGGGGGGCCATCAAGTTGGCCGTTGCCGCTGCTGAGATGAATAACGGCGATGCTCTGGGAACCTTTAGCGCATTTCAGTATTTTTTTTCTATTTCTTGCTTGAAGGCGCAACGCGCGTAGCGTTGTGTATCAAGGGGTTCGGTTTATTCGGCAGCAACTGCCAGATCTTTAGCGTTGGTATAAATGCACCCGCGATAAACTCCGTTGCCTTCGCACATTGCTTGGTGCGAAGGGGCAGGAAACCACGGGTTTTTGCGCGCAATCAGCGGATCAGATTGAACAGC (double strand) [pXCC fliC]”: binds (RpoN2 (sigma54)).

“GCCGGATAACTTTGCAACCAAGGACGTGCCTGACTCATCTGCCCCCCCTCCAGGGTATTCGTTGGTGGCGTGCCATGTTCCACGGCGCCACAGCAACTGGCAGCATACCGTCATGGATGGAAAAGGCGAAGCGTGATGCGCAGCAGCATTTTGAGGTGGCAGGTCGGGCTAGTCGCGTTCTGCGTGCTGCTGGTGGCCGGCTGCGCGAAGCCGGGCCCGGAGCAGCGGCTGCGTGCCACGGTGGAGCAGATGCGCGCGGCGATCGAGGCACGCGATGTACGCGGGGCGATGGCGCCGGTGGCAGAGGATTTTGTCGGCGAGCACGGCATGGACGCGGCCGGGGCGCGGCGCCTGCTGCAACTGCAACTGCTGGGTCATCAAGCGATCGGCGTCACCGTCGGGCCGGTGGACGTGCAGATGCAGGGCAGTACGGCAACCGTGCGCTTCAGCGTGTTGCTGACCGGCGGCGGCGGACGCTGGCTGCCTGATCAGGCGCAGCACTACCAGGTCACCA (double strand) [pXCC rpfB]”: binds (RpoN1 (sigma54)).

“TCGTTGCTCATTGAAAATCCTTGCGGTGTGGGCAGTGGGAAAGGAATCAGCCGGCAGTGGAGATACGTACTGGCCGAACAAAGCGGGGAATCACAACGGCGTCGTCCATGCAGGGATGCACCTCGCCGCGTGTTGCGGCGTTGCTGAAGCACTCTGCGGTGGTGGAGATGGCGTTGTTCATGTCATTCGAAACTTTTGGTGGTCCCTGAAACGCGAAACCCCGCGCCGTTGCCGGTGCGGGGTCTGATCGAAGCCTTGTGTGTCTGTTGCCTACACGAAGCCGCGTCCCGCACCGGTTGGCGAGGTAATAAGTACGAGCACGAGAAGCGACGCCGGCACGCCGATGGGCGCGGGCAGTGAAGCGTTCAAGGTGGCGGTGCGGTGCGGCATGGACCTGAGATAACCACCG (double strand) [pXCC leuA]”: binds (RpoN1 (sigma54)).

“ACGGCCGAGAACAGCTAGTAACAGCGAAGGGACAGCGACAGCGACGAGGTAAGGGGCACGGCCACCTTCAAGACCGTGGAGGGCGCACTGCGTATCACCGGCCAACTGAGCGGGCTCAAGCCCAACAGCGAGTATGGCTTCCACAGCGGCAGCGGCAGATTCGCCGCATCGCTGCTCGGTGCGCCACCGCAATCAGTCCCAACCGGGCGCTTCGGCACCGTGACCAGAACGATCCCCACTCCCGTGTCGACAGACTCAACAATCCTTGCTCGGTGCACCACCGCAATGCGTGCCCGCATCGGGCACTTCAGCCCCTGCTCCAAACGAATCACCAATCCCACCTCCCCAATCCCCTCCTTTGGCACCGCACTTGCATCAGCACTCCCCATGAGCCCTGAAATCGCCCTGACCGAATTGCGTGGTGGCCTGGTCACCGTCTTGTGGATTGCCGGACCGATGTTGCTGGCGGTGCTGGTCGTTGGTGTCGTGATTGGTGTG (double strand) [pXCC fliQ]”: binds (RpoN2 (sigma54); legend body names RpoN1, title and text RpoN2).

Source: PMC7280030
